Reference: ChEMBL document CHEMBL3988442, “University of Dundee, Small-Polar-MMV Screening Library” (2021)
This is a selection; strong and weak results do not stand in their true shares.

The chains behind the UniProt entries cited, without tags or fusion partners. Residues count along the entry.
UniProt E9BF75, entry or part of it: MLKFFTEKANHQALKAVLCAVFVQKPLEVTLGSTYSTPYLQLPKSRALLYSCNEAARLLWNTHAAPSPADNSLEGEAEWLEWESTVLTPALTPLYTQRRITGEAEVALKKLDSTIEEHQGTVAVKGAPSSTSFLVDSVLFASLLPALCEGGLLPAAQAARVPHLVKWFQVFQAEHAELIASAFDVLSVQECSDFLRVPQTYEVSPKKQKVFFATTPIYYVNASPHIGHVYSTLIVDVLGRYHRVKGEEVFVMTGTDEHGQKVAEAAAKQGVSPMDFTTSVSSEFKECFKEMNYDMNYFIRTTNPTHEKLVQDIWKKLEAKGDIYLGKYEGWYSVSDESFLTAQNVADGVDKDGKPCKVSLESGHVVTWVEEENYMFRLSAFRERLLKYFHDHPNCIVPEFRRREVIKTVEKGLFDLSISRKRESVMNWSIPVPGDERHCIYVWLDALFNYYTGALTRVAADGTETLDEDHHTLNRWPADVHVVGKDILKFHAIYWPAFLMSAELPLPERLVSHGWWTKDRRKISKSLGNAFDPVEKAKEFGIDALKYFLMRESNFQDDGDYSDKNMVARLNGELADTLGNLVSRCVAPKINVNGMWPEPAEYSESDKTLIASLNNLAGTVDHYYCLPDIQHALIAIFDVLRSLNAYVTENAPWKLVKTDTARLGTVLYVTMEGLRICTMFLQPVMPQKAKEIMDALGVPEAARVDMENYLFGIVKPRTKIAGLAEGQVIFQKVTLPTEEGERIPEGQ
UniProt P9WNZ1, whole entry: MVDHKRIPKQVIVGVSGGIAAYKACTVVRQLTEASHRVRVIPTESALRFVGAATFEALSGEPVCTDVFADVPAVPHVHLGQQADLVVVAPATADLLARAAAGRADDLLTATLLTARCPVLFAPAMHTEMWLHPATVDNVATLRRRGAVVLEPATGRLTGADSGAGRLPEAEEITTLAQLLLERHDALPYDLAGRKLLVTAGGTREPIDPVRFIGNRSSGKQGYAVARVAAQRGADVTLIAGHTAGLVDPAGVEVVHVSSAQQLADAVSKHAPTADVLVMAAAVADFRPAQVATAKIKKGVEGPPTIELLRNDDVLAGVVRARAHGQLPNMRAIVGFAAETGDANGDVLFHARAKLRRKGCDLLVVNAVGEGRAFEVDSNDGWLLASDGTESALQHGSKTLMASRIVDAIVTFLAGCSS
UniProt Q8IDJ8, 1-583: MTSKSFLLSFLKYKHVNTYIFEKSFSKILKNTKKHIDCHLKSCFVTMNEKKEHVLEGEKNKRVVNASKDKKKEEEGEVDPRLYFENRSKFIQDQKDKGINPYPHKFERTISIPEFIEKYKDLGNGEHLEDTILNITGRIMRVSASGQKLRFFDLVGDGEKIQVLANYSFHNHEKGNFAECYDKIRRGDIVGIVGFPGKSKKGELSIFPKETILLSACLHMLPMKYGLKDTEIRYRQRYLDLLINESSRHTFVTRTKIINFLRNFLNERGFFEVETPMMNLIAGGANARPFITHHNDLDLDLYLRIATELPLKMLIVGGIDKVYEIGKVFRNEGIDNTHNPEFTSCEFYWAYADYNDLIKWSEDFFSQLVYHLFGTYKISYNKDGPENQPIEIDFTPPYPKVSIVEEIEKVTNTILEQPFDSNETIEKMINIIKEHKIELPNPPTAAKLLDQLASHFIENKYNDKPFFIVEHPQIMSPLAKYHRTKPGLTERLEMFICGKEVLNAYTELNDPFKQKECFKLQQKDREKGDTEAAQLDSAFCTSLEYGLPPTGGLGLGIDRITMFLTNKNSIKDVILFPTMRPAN
UniProt Q4DA54, 1-478: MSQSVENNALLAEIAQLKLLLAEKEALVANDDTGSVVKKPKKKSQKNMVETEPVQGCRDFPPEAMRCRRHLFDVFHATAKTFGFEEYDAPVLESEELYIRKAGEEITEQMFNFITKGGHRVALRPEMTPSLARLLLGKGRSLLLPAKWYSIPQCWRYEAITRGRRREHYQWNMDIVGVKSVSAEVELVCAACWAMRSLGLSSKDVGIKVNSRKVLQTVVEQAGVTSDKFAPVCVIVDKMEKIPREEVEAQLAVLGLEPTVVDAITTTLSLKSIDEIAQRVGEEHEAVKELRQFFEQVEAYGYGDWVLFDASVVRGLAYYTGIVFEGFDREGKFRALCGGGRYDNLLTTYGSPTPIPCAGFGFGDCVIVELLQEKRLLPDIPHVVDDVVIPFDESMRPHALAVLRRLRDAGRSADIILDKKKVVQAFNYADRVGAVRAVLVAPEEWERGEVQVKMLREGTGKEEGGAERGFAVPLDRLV
UniProt P9WFT3, whole entry: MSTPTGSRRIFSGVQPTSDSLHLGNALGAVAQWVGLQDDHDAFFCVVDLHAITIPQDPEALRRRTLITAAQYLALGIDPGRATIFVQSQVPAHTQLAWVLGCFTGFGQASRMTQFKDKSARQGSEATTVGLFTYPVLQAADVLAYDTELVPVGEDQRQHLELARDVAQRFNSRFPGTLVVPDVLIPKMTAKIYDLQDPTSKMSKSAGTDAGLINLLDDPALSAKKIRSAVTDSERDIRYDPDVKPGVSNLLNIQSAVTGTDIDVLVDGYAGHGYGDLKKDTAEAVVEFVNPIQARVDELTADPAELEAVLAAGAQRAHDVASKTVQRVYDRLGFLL
UniProt A4I591, 1-473: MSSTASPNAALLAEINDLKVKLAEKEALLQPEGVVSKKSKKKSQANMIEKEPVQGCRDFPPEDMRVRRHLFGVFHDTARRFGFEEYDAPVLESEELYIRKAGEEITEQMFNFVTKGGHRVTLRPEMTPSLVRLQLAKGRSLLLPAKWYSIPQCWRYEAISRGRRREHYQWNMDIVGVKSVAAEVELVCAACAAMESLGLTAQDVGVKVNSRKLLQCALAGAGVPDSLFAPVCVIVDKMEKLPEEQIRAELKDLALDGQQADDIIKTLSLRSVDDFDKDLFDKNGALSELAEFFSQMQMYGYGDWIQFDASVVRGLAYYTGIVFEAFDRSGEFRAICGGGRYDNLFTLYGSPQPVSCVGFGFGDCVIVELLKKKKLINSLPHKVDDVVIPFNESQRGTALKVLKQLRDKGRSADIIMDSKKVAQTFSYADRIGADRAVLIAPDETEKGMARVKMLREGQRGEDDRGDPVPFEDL
UniProt I6X8D2, whole entry: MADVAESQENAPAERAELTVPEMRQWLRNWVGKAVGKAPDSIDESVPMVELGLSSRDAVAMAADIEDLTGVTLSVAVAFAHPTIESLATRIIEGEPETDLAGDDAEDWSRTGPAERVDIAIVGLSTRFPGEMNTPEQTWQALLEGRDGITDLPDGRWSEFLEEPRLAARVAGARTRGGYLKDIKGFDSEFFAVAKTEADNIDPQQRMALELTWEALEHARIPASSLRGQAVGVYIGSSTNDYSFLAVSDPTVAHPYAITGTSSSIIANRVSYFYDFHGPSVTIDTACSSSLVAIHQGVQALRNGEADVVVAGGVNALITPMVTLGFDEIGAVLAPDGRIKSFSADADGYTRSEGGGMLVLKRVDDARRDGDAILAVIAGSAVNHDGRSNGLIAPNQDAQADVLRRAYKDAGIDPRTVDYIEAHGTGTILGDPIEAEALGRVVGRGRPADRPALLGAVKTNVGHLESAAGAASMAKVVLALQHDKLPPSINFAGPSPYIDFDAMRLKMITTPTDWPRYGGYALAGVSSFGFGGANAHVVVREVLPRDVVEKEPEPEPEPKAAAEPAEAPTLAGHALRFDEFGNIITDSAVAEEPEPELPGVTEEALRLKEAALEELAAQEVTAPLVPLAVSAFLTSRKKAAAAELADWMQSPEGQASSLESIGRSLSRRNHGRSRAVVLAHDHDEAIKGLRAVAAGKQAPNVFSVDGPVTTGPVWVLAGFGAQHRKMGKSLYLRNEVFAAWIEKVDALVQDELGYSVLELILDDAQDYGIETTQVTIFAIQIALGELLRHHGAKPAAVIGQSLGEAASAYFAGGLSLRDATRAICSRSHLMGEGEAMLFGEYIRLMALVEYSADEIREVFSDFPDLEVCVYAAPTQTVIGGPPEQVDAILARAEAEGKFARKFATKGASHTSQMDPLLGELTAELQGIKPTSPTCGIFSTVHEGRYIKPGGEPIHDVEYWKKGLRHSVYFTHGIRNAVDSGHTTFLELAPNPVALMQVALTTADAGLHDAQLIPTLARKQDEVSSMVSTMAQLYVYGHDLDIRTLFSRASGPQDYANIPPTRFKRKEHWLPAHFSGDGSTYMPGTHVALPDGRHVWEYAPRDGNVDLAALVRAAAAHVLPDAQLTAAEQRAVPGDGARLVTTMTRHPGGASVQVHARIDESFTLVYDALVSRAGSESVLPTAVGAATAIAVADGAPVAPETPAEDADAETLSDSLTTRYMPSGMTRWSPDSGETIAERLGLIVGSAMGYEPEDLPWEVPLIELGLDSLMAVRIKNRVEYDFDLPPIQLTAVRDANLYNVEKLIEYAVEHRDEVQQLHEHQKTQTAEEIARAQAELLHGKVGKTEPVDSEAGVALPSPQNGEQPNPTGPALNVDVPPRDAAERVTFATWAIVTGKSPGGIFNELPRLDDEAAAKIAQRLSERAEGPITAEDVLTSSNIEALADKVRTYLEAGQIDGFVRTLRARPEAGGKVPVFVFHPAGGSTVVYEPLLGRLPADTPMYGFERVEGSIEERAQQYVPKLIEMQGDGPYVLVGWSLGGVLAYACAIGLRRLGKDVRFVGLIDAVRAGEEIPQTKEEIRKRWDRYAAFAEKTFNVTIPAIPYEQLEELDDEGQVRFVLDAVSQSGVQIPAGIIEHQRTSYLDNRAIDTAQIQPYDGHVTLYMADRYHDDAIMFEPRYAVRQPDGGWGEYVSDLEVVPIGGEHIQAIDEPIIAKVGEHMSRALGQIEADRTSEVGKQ
UniProt P9WPC5, whole entry: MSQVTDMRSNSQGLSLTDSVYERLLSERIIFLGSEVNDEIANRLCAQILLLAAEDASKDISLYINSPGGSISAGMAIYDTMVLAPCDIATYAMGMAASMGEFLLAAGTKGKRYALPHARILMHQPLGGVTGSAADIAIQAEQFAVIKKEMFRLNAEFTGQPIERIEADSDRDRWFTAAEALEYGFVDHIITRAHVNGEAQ
UniProt P9WPC3, whole entry partner: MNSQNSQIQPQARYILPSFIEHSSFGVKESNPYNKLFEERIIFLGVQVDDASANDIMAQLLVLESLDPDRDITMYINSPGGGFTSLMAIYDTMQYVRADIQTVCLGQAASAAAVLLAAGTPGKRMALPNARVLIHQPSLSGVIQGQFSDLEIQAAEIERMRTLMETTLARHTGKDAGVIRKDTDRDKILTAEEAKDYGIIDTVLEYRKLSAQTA

How the values were obtained:
Type in all cases: functional
[1] = biological target: Methionyl-tRNA synthetase, putative (Leishmania donovani (strain BPK282A1)) (UniProt E9BF75); experiment: Leishmania donovani Methionine tRNA synthetase (LdMetRS):v6. Primary screen assay; design: conc 80 nM, time 150 minutes
[2] = biological target: Coenzyme A biosynthesis bifunctional protein CoaBC (Mycobacterium tuberculosis (strain ATCC 25618 / H37Rv)) (UniProt P9WNZ1); experiment: Biomol Green assay for MtCoaBC inhibitor, OD650 read; design: scale not given: in the data most compounds retested in dose-response had high values; details: 30 µM
[3] = biological target: Lysine--tRNA ligase (Plasmodium falciparum (isolate 3D7)) (UniProt Q8IDJ8); experiment: Pf-KRS-1 (Lysyl-RNA Synthetase-1, KRS-1, cytosolic KRS) from Plasmodium falciparum. Inhibitor assay, 384 well plate, luminescence read.; design: scale not given: direction of the effect not stated beside the values; details: 30 µM; note: in the data most compounds retested in dose-response had high values
[4] = biological target: Histidine--tRNA ligase (Trypanosoma cruzi (strain CL Brener)) (UniProt Q4DA54); experiment: Trypanosoma cruzi histidyl tRNA synthetase (Tc-HisRS); design: scale not given: direction of the effect not stated beside the values; details: 30 µM
[5] = biological target: Tryptophan--tRNA ligase (Mycobacterium tuberculosis (strain ATCC 25618 / H37Rv)) (UniProt P9WFT3); experiment: Biochemical assay for Mt-TrpRS; design: scale not given: direction of the effect not stated beside the values; details: 10 µM
[6] = biological target: Histidine--tRNA ligase (Leishmania infantum) (UniProt A4I591); experiment: Leishmania infantum Histidine tRNA synthetase (LdHisRS); design: scale not given: in the data most compounds retested in dose-response had high values; details: 30 µM
[7] = biological target: Polyketide synthase Pks13 (Mycobacterium tuberculosis (strain ATCC 25618 / H37Rv)) (UniProt I6X8D2); experiment: Mycobacterium tuberculosis Polyketide synthase 13 Thioesterase (PKS13); design: scale not given: in the data most compounds retested in dose-response had high values; details: 30 µM
[8] = biological target: ClpP1P2 (Mycobacterium tuberculosis (strain ATCC 25618 / H37Rv)) (UniProt P9WPC5+P9WPC3); experiment: in vitro assay to detect presence of AMC directly proportional to the activity of ClpP1P2. GHDDI collaboration.; design: scale not given: direction of the effect not stated beside the values; details: 50 µM

Compound | inhibition [1] | Percent Effect [2] | Percent Effect [3] | Percent Effect [4] | Percent Effect [5] | Percent Effect [6] | Percent Effect [7] | Percent Effect [8]
CC1(C)CN(C2(CNC(=O)c3c[nH]nn3)CCCCC2)CCO1 | 16.6% | -8.26% | 6.75% | 6.19% | -1.85% | 16.5% | -52.6% | 7.05%
COc1cc(NC2CCN(C(C)c3nnc(C)o3)CC2)cc(OC)c1 (stereo not drawn) | 18.6% | 9.91% | -0.322% | 8.46% | 1.53% | 15.7% | -3.61% | -4.88%
Cc1cccc(NC2CCN(Cc3nc(C)c(C)o3)CC2)c1 | 8.27% | -5.7% | -0.141% | 3.7% | 9.81% | 2.94% | -10.9% | 2.65%
NC1(CNC(=O)c2cc3ccccc3[nH]2)CCCCC1 | 8.61% | 3.15% | 3.75% | -7.96% | – | 1.98% | -8.35% | -1.51%
Cc1cccc(NC2CCN(Cc3nnc(C(C)C)o3)CC2)c1 | 20.3% | 1.63% | 8.5% | 6.88% | -2.48% | 23.5% | -23.3% | 1.79%
COc1cccc(NC2CCNCC2)c1 | 17.2% | -2.83% | 7.18% | 11.3% | -4% | 20.9% | -11.1% | 3.27%
COc1ccc2[nH]c(C(=O)NCC3(N)CCCCC3)cc2c1 | 7.5% | 0.728% | 5.32% | 2.27% | – | 7.92% | 16.4% | -3.9%
COc1ccccc1NC1CCN(Cc2ccc(Br)s2)CC1 | 10.3% | 4.55% | 3.46% | 2.61% | -0.0713% | 10% | 17.7% | 4.15%
COc1ccccc1NC1CCN(Cc2nc(C)ccc2O)CC1 | 10.3% | 8.29% | 5.36% | 0.87% | 0.356% | 10% | -23.4% | -8.53%
CC1(C)CN(C2(CNC(=O)c3csnn3)CCCCC2)CCO1 | 20.4% | -0.472% | 3.67% | 4.12% | -1.69% | 16.5% | -12.6% | 1.42%
Fc1ccccc1NC1CCNCC1 | 15% | 1.18% | 2.63% | 10.3% | -3.54% | 16.5% | -16.4% | 1.91%
COc1ccc(NC2CCN(CCc3ccccc3)CC2)cc1OC | 2.94% | -20.7% | 2.63% | 15.6% | -5.75% | 62.7% | -1.61% | 3.27%
Cc1ccccc1NC1CCNCC1 | 14.5% | -2.59% | 0.193% | -4.12% | 1.23% | 12.1% | -18.6% | 6.69%
CCCN1CCC(Nc2ccc(OC)c(OC)c2)CC1 | 9.36% | -18.2% | 9.14% | 28.3% | 0.973% | 44% | 0.0408% | 2.65%
COc1ccc(OC)c(NC2CCN(Cc3ccc(Br)cc3)CC2)c1 | 12.1% | -0.521% | -1.66% | 4.66% | 1.54% | 7.87% | -12.8% | -11%
